Data on ten molecules can be found in patent US20040229898A1, “Cyclic bis-compounds clearing malformed proteins” (priority 2001, published 2004).

Assay [1] concerns the target T1, PrP^Sc in ScN2a cells (Mus musculus, UniProt P04925). Description: PrP^Sc inhibition in permanently scrapie-infected neuroblastoma cells (ScN2a), one week treatment, immunoblot. Particulars: range tested. In general terms: In western blotting, separated proteins are transferred to a membrane and probed.
The target of assay [2] is T1, PrP^Sc in ScN2a cells. In words: PrP^Sc inhibition screening assay in ScN2a cells (three days, immunoblot densitometry). Particulars: for % PrP^Sc (±SEM) 50 nM / % PrP^Sc (±SEM) 200 nM / % PrP^Sc (±SEM) 400 nM: three days, ScN2a, PK-resistant PrP remaining versus untreated control.
Assay [3] addresses T1, PrP^Sc in ScN2a cells. In words: Dose-dependent reduction of PrP^Sc in ScN2a cells by compound 11, seven days, immunoblot.
Assay [4] concerns the target T1, PrP^Sc in ScN2a cells. Description: Accumulation of proteinase K resistant PrP^Sc in ScN2a cells treated with optical isomers of quinacrine. As to conditions: 0-0.4 micromolar, six days.

Regarding `CCN(CC)CCCC(C)Nc1ccnc2cc(Cl)ccc12` (centres unmarked), the “anti-PrP^Sc effect, in words” value in assay [1] is “did not inhibit PrP^Sc at the same potency as quinacrine”.
Turning to `COc1ccc2nc3cc(Cl)ccc3c(NCCCN3CCN(CCCNc4c5ccc(Cl)cc5nc5ccc(OC)cc45)CC3)c2c1` [Compound 11, (6-chloro-2-methoxy-acridin-9-yl)-(3-{4-[3-(6-chloro-2-methoxy-acridin-9-ylamino)-propyl]-piperazin-1-yl}-propyl)-amine], in assay [2], the “% PrP^Sc (±SEM) 50 nM” value is given as 61(±3) %, the “% PrP^Sc (±SEM) 200 nM” value is recorded as 19(±5) % and the “% PrP^Sc (±SEM) 400 nM” value is listed as 4(±2) %. For the same molecule, the “reduction of PrP^Sc concentration in ScN2a cells, in words” value in assay [3] (10 nM to 200 nM, seven days) is on record as “dose-dependent manner”. Moreover, the “bioactivity when incubated with the lysosomotropic agent chloroquine” value in assay [3] (cultures of ScN2a cells, results not shown) was “not compromised”.
`O=C(CCCN1CCC(O)(c2ccc(Cl)cc2)CC1)c1ccc(F)cc1`: the “anti-PrP^Sc effect, in words” value in assay [1] is listed as “did not inhibit PrP^Sc formation or accumulation”.
Consider (+)-quinacrine, for which, in assay [4], the “activity compared to the (L) optical isomer” value was “substantially greater activity”.
Consider `CCCN(CCCCNc1c2ccc(Cl)cc2nc2ccc(OC)cc12)CCCNc1c2ccc(Cl)cc2nc2ccc(OC)cc12` [Compound 15, N-(6-Chloro-2-methoxy-acridin-9-yl)-N′-[3-(6-chloro-2-methoxy-acridin-9-ylamino)-propyl]-N′-propyl-butane-1,4-diamine], for which, in assay [2], the “% PrP^Sc (±SEM) 50 nM” value is on record as 88(±2) %, the “% PrP^Sc (±SEM) 200 nM” value is given as 41(±6) % and the “% PrP^Sc (±SEM) 400 nM” value is given as 11(±1) %.
Turning to `CN(C)c1ccc2nc3ccc(=[N+](C)C)cc-3sc2c1`, in assay [1], the “anti-PrP^Sc effect, in words” value is “did not exhibit any anti-PrP^Sc effects”.
For the molecule `COc1ccc2nc3cc(Cl)ccc3c(NCCCCN(CCCNc3c4ccc(Cl)cc4nc4ccc(OC)cc34)C(=O)C(C)NC(=O)OC(C)(C)C)c2c1` (centres unmarked) [Compound 17, (1-{[4-(6-chloro-2-methoxy-acridin-9-ylamino)-butyl]-[3-(6-chloro-2-methoxy-acridin-9-ylamino)-propyl]-carbamoyl}-ethyl)-carbamic acid tert-butyl ester], in assay [2], the “% PrP^Sc (±SEM) 50 nM” value was 84(±10) %, the “% PrP^Sc (±SEM) 200 nM” value is given as 36(±1) % and the “% PrP^Sc (±SEM) 400 nM” value is reported as 7(±1) %.
In the case of `COc1ccc2nc3cc(Cl)ccc3c(NCCOCCOCCNc3c4ccc(Cl)cc4nc4ccc(OC)cc34)c2c1` [Compound 13, N,N′-Bis-(6-chloro-2-methoxy-acridin-9-yl)-1,8-diamino-3,6-dioxaoctane], in assay [2], the “% PrP^Sc (±SEM) 50 nM” value was 41(±8) %, the “% PrP^Sc (±SEM) 200 nM” value was 29(±8) % and the “% PrP^Sc (±SEM) 400 nM” value is 15(±7) %.
Consider `CCN(CC)CCCC(C)Nc1cc(OC)cc2cccnc12` (centres unmarked), for which the “anti-PrP^Sc effect, in words” value in assay [1] is reported as “did not inhibit PrP^Sc at the same potency as quinacrine”.
On to `COc1ccc2nc3cc(Cl)ccc3c(NCCCCCCCCNc3c4ccc(Cl)cc4nc4ccc(OC)nc34)c2n1` [Compound 21, N,N′-Bis-(7-chloro-2-methoxy-benzo[b][1,5]naphthyridin-10-yl)-octane-1,8-diamine], for which, in assay [2], the “% PrP^Sc (±SEM) 50 nM” value was 100(±6) %, the “% PrP^Sc (±SEM) 200 nM” value is recorded as 88(±8) % and the “% PrP^Sc (±SEM) 400 nM” value is listed as 77(±3) %. For the same molecule, the “activity against PrP^Sc relative to a comparator, in words” value in assay [2] (ScN2a screen, Table 2) was “reduced bioactivity”.
